Construct, isoform or probe ends are uncertain for at least one entry.

For the data set, the system named is His-CalR (Vibrio parahaemolyticus RIMD2210633). The experiment in a line: EMSA. To be noted: 10 uL: 10 mM Tris-HCl pH 7.5, 50 mM NaCl, 1 mM MgCl2, 0.5 mM EDTA, 0.5 mM DTT, 0.625 ug/mL salmon sperm DNA, 100 ng target DNA, 0-13.80 pmol His-CalR, recombinant protein, protein details: 6xHis, probe letters rebuilt from the primers and the genome.
Consider “GCGCGAATTCAAGCGAACTCCATCTCATAAGAACGAATTAGTCCTTTGTGTTTCATGACCTAGTTTCCCTTCTAGCACGCTACCGCCATTGGGGTGATTGCCCAATAGCCGTGTCGCGAACGTTTTAATTGATGAGCAGAGACATTTCTATGAATGTTTCTGAATTTCTGTAACGCATAAATTCGAAGGTAAGTTTAAAAATTCGTGTTGTTTAGGTAAGTGGAAATAAGAATGAAATTTAGACCTTTGGCTAAGTTTTGCTGTTTAGGAAAAAGCTGGTACTTGCTAAGCAGGGATGAGGAAAAGTATTAAGAAGCGAGTTTGATTATAAAAACTAAGGTTTAATTTCTTGATGGTCTAACGGATGACTTATTTACAGGGAAGGTCGACGCGC (double strand) [cpsA promoter]”, for which the binding result was “binds”.
Turning to “GCGCGAATTCAGCATAGATACAAGAAAACAAAATGATAATAAAGTTGAGGGTTCTTATATCTAAATAGTGACTCTCCATATGTGCTCCACAGCGAACCATTACTCGGGCAACTCCTTTGCCCGTCATCAATAAACGTCCAGTATGTTAGCGTAATTATAGAATGATGTCTTAAGTTAAGCGGCTATTCGTTGACCAGCTCGAATTCTTTGATTTCTTCTGCTTTTTTAGTGAACAAAAGTCCGATCGTTGCCATGATGACACTAGGTACAATCCAGCTCGCGAACTCATTATACAAAGGCATGTTGTGGCTCATCCATTGGTCTACGGCTTCTGGCATGTAGCCCAAAATGTGCAGAGCATCGACACAACCAAATGCTAGTGCGGTGAACGCGGTAAGCACCAACATGAACTGAGACATTTTGTTGCGAACGGGTGCCATCATCATCAAAGCAATCGCCACAGGATGAAGTGCCACAACCGCAGGTAAAGTGATTGCCAATAGCTGCTCTAAACCGATGTTGGCGATAAAGCCTGACAGTACCATGGTGATGACGACACAGCTTTTGTAGTTCACTTTGCTAAAGGTGTTGTCATAGAGTCGACGCGC (double strand) [vpa0184 promoter]”, the binding result was “binds”.
Regarding “GCGCGAATTCCGAGCGAATTACTATTTGGATCAAAGGTAAACCTTTGAGCAAGTAGAAATTTGGTGCCGATGTTAGTCATTTAGTTCTTCTTAGATGGATGATGTTGTAATTATGGTGATTTATATCACAAAATTACGTTTGCGCATGGGAGATACGCGACGTTTTAGATGCTTTTAGGGGGGTAGGATAATTAAATTTTTCTAAAAAAACACCGTTTTTAGCAATATTGACCTTGAATTTACATTTGTCAGCCACATGTTAAATGACATCTTAGTGTGGTGATTTCATGGGGCTAAATCACAAAGTCGTCCCTGAAAAAGCCTGTTAGTTTAGATGTTATGGAGCACACATGAGCGAAACCGTATCTCAAAATAAAGAAACTCGTGGTTTTCAATCAGAAGTAAAACAACTACTTCATTTAATGATCCATTCTCTTTATTCCAATAAAGAGATCTTTTTGCGCGAGCTGATTTCTAACGCATCAGATGCATCAGACAAATTGCGTTTTCAGGCACTTTCGAATCCAGATTTATATGAAGGTAACGCAGATCTTGGCGTTAAGCTGTCATTTGATGAAAGTGCAAATACCTTAACGATGTCGACGCGC (double strand) [toxR promoter (positive control)]”, the binding result is reported as “binds”.
Consider “GCGCGAATTCGTCTTGCTGATTCTGATGCAACAGCTCAATAACACCAACACACAAAGCAACAAAAGCGAAAAAGAACAGTGCAAAATAGCACTGCTTTCTGGGTGAATAACGCATTAGCTCCCCACTAGCTCGTCCGTTACTACGAGAATTATTCTTTTATTGTTAAAATTCTTATTATCTACAAGAATAACCAATAGCCTTTGCAAAGGTAATAATTATCTGAAATTTTTATGGTTTAAATAGGCAACGGGATGCAAGGACAAGGCGATTTATTTGAAAGTACGGATTGGCAAGAGGTACGCCAAGGTAAGCTCTTTTATCAGCCAAACTTTCTTTCTCAGCAAGAAGCGGATACGTACTTTTCAACGCTTATGAGTACCTTGCCTTGGCAACAAGAACGCATAACCATTTTCGGGAAATCGGTACTTCAACCTCGTTTGCAGACTTGGCATGGCGATGCGCCTTACACCTATTCGGGTTTAACCATGGCACCTCACCCTTGGACGTCTGAGCTGTCATCACTCAAGGCTCGCTGTGAAAGCCTTGCCAACACCCCGTTCAACTCTGTATTGGCGAATCTGTATCGCGACGGTCAGGACTCGATGGGATGGCACCAAGACAATGAACCAGAGGTCGACGCGC (double strand) [vpa0198 promoter]”, for which the binding result is reported as “binds”.
Take “GCGCGTCGACCAATAGGATGATGAAACCGATGCGGCGGCAAAGCATGTGGATGGCATGCTTTGCTGCTTGCTTGTGCTTAGCATTATTACTAAGTTGTTCATCGAAAGTTATATAAAAAGAGGAACAAATGAGCTTTATGAGTAAGTGGTAATTTCTGTAATAACCATAAGTTATGTATGCCTTTTGTTTGTCGTGAAGGTCAATAATCTCATTGGATCGAGCGATGTATAGTCGCTAAATTAAGTTGGCAACTTTTCCGTGCTGTTATTGGCATTTAGTACCCATTGTTTGACCTTAATACGAAAAACGACATTACCCATCAACAATGTTTGCCTGAGTTTCGGCTGTTGTATTAACGGCTGCATTTTCTGCAGTTGAAGATAACTACTTTACAAAAGAACTCTCCATGCAAACTCGCCGCGAACTCTTCTTTGCCCCTTTTCAGCGTCTGGCTGTAATCGCAGAGCAATGGCGAGCTGGGTCTAAATCTTACTTGAATTCGCGC (double strand) [vpa1429 promoter]”: the binding result is on record as “binds”.
For “GCGCGTCGACGGTCTTGCCATTTACGAGTTTGAAGTTGGCCTTCAACGTAAACTTGTGAACCTTTACGCAGGTACTCACCAGCAACTTCTGCCAACTTACCGAACAACACAACACGGTGCCATTCTGTTTTTTCGCGCTGTTCGCCAGTCGCTTTGTCACGCCATGACTCAGAAGTAGCAATCGTGATGTTTGCTACCGCACCGCCATTAGGCATGTAACGAATTTCAGGGTCGTTACCTAGATTCCCCACCAAAATAACTTTGTTAATTCCACGGCTGGCCATGATGTGCTCCGTTTCACTCTGGATCTGTATATTAATTTTAGCGCAATAGAATACACGCTTTGATGTTTTGGTTAAAGCCCAATGCCATTGTGTTCGATCACGCCCTACGCTAGAACCAAAATCTCAGTTCAACTTTCATATGTAGCATTTTTGATTCGCGTTGCAGACTTCATTCGTGAACCTTTGAATCTCAACGCATTTATTCACCAAAGCTATAGCTCTCCCCATACTTTAATGCCAACTTACGGCCTCTACAGAACCTTGGGAGATTTGAACACGTGAGAAAGTCGGCTTACGCAAGAAAGCTATTTCTGATTAGTATGGAAGACGATGCTGCGGAATTCGCGC (double strand) [scrP promoter]”, the binding result is “binds”.

Values taken from paper PMC12542678.
